Test results from US20250320281A1.

Tests used:
Test in all cases: cell-based or functional assay
[1] = target: 162-pseudovirus panel representing all major circulating HIV-1 subtypes
[2] = target: Env of all HIV-1 pseudoviruses of the cross-clade 162-pseudovirus panel (n = 162)
[3] = target: Env of the clade AE HIV-1 pseudoviruses of the 162-pseudovirus panel (n = 10)
[4] = target: Env of the clade AG HIV-1 pseudoviruses of the 162-pseudovirus panel (n = 10)
[5] = target: Env of the clade B HIV-1 pseudoviruses of the 162-pseudovirus panel (n = 31)
[6] = target: Env of the clade D HIV-1 pseudoviruses of the 162-pseudovirus panel (n = 25)
[7] = target: Env of the clade F HIV-1 pseudoviruses of the 162-pseudovirus panel (n = 15)
[8] = target: Env of the clade G HIV-1 pseudoviruses of the 162-pseudovirus panel (n = 15)
[9] = target: Env of the clade A HIV-1 pseudoviruses of the 162-pseudovirus panel (n = 26)

B1: 5123_A06 (PGT-125) (antibody, V domains shown)
VH: QSQLQESGPRLVEASETLSLTCNVSGESTGACTYFWGWVRQAPGKGLEWIGSLSHCQSFWGSGWTFHNPSLKSRLTISLDTPKNQVFLKLTSLTAADTATYYCARFDGEVLVYNHWPKPAWVDLWGRGIPVTVSS
VL: QSALTQPPSASGSPGQSITISCNGTATNFVSWYQQFPDKAPKLIIFGVDKRPPGVPDRFSGSRSGTTASLTVSRLQTDDEAVYYCGSLVGNWDVIFGGGTTLTVL
In the case of B1, the Median IC50 (µg/ml) against viruses neutralized with an IC50 <50 µg/ml [1] is reported as 0.04 µg/mL, the Median IC50 (µg/ml) against viruses neutralized with an IC50 <50 µg/ml [2] is reported as 0.04 µg/mL and the Median IC50 (µg/ml) against viruses neutralized with an IC50 <50 µg/ml [3] is reported as 0.03 µg/mL. The Median IC50 (µg/ml) against viruses neutralized with an IC50 <50 µg/ml [4] was 0.01 µg/mL, the Median IC50 (µg/ml) against viruses neutralized with an IC50 <50 µg/ml [5] was 0.02 µg/mL and the Median IC50 (µg/ml) against viruses neutralized with an IC50 <50 µg/ml [6] was 0.09 µg/mL. It also gave a Median IC50 (µg/ml) against viruses neutralized with an IC50 <50 µg/ml [7] of 0.04 µg/mL and a Median IC50 (µg/ml) against viruses neutralized with an IC50 <50 µg/ml [8] of 0.02 µg/mL.

B2: 5141_B17 (PGT-126) (antibody, V domains shown)
VH: QPQLQESGPGLVEASETLSLTCTVSGDSTAACDYFWGWVRQPPGKGLEWIGGLSHCAGYYNTGWTYHNPSLKSRLTISLDTPKNQVFLKLNSVTAADTAIYYCARFDGEVLVYHDWPKPAWVDLWGRGTLVTVSS
VL: QSALTQPPSASGSPGQSISISCTGTSNRFVSWYQQHPGKAPKLVIYGVNKRPSGVPDRFSGSKSGNTASLTVSGLQTDDEAVYYCSSLVGNWDVIFGGGTKLTVL
B2 showed a Median IC50 (µg/ml) against viruses neutralized with an IC50 <50 µg/ml [1] of 0.04 µg/mL, a Median IC50 (µg/ml) against viruses neutralized with an IC50 <50 µg/ml [2] of 0.04 µg/mL and a Median IC50 (µg/ml) against viruses neutralized with an IC50 <50 µg/ml [9] of 0.01 µg/mL. It also gave a Median IC50 (µg/ml) against viruses neutralized with an IC50 <50 µg/ml [4] of 0.03 µg/mL, a Median IC50 (µg/ml) against viruses neutralized with an IC50 <50 µg/ml [5] of 0.02 µg/mL and a Median IC50 (µg/ml) against viruses neutralized with an IC50 <50 µg/ml [6] of 0.04 µg/mL. The Median IC50 (µg/ml) against viruses neutralized with an IC50 <50 µg/ml [7] was 0.05 µg/mL.
